# Laboratory results: PubChem BioAssay AID1259414 (Drosophila RNAi Screening Center, 2018)
# Assay: 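Genome-wide screen for host control of endosymbiont load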 (primary screen)
# Cells: Drosophila JW18 cells infected with Wolbachia
# Knock-down reagent: long dsRNA against Drosophila genes, 0.25 µg dsRNA per well of a 384-well plate
# Timing: 5 days
# Conditions: cells persistently infected with Wolbachia before knock-down; no added drug
# Measured: 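Imaged fluorescence in situ signal for Wolbachia 23S rRNA per DAPI-counted host cell, given as a robust z-score within each plate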
# Direction: Wolbachia per cell robust z: higher = more Wolbachia per host cell than the plate typical
# Call rule: 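Hit when robust z is 1.5 or more, or -1.5 or less, in at least two of three replicates; excludes dsRNAs with several or no targets, genes not expressed in JW18 and well A1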
# The deposit covers about 24,000 reagents; below is an unselected part of those with a known target gene and a result. Over the whole deposit, about 1,210 (5%) were called active. 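Inactive calls also include excluded dsRNAs with several or no targets, genes unexpressed in JW18, and well A1, regardless of score.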 Entries without a mark were called inactive. Reagents against one gene are numbered here. A plus sign joins genes that one reagent is predicted to hit.
"Wolbachia per cell robust z, rep 1","Wolbachia per cell robust z, rep 2","Wolbachia per cell robust z, rep 3",predicted target,dsRNA no.
0.102,-0.605,-3.55,NimC2,1
-0.0924,0.556,0.109,Tim13,1
1.15,-0.221,-0.161,wat,1
-1.23,-0.107,0.109,ReepB,1
1.4,-0.217,1.02,ReepB,2
0.322,-1.38,0.343,inc,1
0.87,-1.68,-0.0719,inc,2
-0.0352,-0.535,1.49,inc,3
0.607,1.16,0.836,CG15024,1
0.000772,0.349,0.417,CG31200,1
1.24,-2.15,1.17,Jhbp3,1
0.0474,-0.463,0.496,Nplp2,1
-0.119,0.138,-0.623,sac,1
0.629,-0.561,-0.346,sac,2
-0.0468,1.06,0.487,CG42554,1
-0.299,-0.0408,-7.46,CG15880,1
0.311,-4.35,0.317,CG32277,1
-0.638,1.23,0.118,Ca-alpha1D,1
1.06,0.606,0.166,sav,1
0.143,0.558,0.591,sav,2
0.532,0.323,0.755,MBD-R2,1
1.74,0.842,0.792,CG14613,1
0.291,1.25,0.885,CG14613,2
-0.849,-0.978,-0.47,Cpr47Ed,1
-0.0456,-1.74,0.0989,Adck1,1
-1.62 (active),0.36,-2.54,Pde6,1
0.72,0.838,0.48,Pde6,2
0.6,1.4,1.13,Pde6,3
1.51,0.893,1.56,CG15395,1
0.426,0.469,0.572,Shawn + Tyler,1
0.308,0.647,0.113,CG12177,1
-0.911,0.607,-1.14,CG12177,2
-0.891,0.311,-0.612,CG12177,3
-0.573,-0.972,-0.27,CG4119,1
1.16,-0.224,0.00149,CG4119,2
0.715,1.01,1.07,CG14795,1
-1.36,-0.244,-0.638,CG14795,2
-0.833,-1.69,-2.84,Mur82C,1
0.732,1.55,0.803,Mur82C,2
0.249,-8.88,0.512,Mur82C,3
0.666,0.0207,0.00348,Mur82C,4
0.511,-0.705,1.33,CG31019,1
-0.451,-1.01,1.02,CG31019,2
0.812,0.431,-1.69,tio,1
0.713,0.895,0.282,tio,2
-0.606,-0.226,-2.15,CG17658,1
-0.21,0.283,-2.67,CG13004,1
0.259,0.603,0.0454,CG34112,1
0.183,-5.68,0.67,CG4757,1
-0.186,0.725,0.0587,Slmap,1
-2.48,-0.954,-0.304,CG16985,1
-1.42,-4.4,0.429,CG11342,1
-0.789,0.276,1.57,CG11342,2
-1.05,0.225,0.0658,Oatp30B,1
1,0.247,-0.0517,Argl + CG9515,1
1.53,-0.444,0.798,Argl + CG9515,2
-0.706,0.0471,-2.22,Ir41a,1
0.958,-0.448,0.763,Ir41a,2

The list goes on; the last 12 above are carried over.
"Wolbachia per cell robust z, rep 1","Wolbachia per cell robust z, rep 2","Wolbachia per cell robust z, rep 3",predicted target,dsRNA no.
-0.21,0.283,-2.67,CG13004,1
0.259,0.603,0.0454,CG34112,1
0.183,-5.68,0.67,CG4757,1
-0.186,0.725,0.0587,Slmap,1
-2.48,-0.954,-0.304,CG16985,1
-1.42,-4.4,0.429,CG11342,1
-0.789,0.276,1.57,CG11342,2
-1.05,0.225,0.0658,Oatp30B,1
1,0.247,-0.0517,Argl + CG9515,1
1.53,-0.444,0.798,Argl + CG9515,2
-0.706,0.0471,-2.22,Ir41a,1
0.958,-0.448,0.763,Ir41a,2
-1.14,-0.925,-1.63,CG11227,1
-0.179,-0.408,-0.783,CG11227,2
0.23,0.0355,-0.148,Cyp1,1
-0.177,0.722,0.0639,Cyp1,2
-2.3,1,0.102,Prp5,1
0.84,0.433,-5.22,Prp5,2
-0.665,0.523,1.28,CG30033 + dare,1
-1.87,-0.74,0.125,Cog2,1
-0.157,-0.0917,1.02,prel,1
0.709,0.238,-0.843,CG11889 + CG11891,1
0.534,-0.101,0.278,CG11889 + CG11891,2
1.16,0.637,-0.32,CG11889 + CG11891,3
-0.109,0.708,-1.3,Jra,1
-0.127,-1.3,0.823,Jra,2
0.124,1.01,1.43,CG6701,1
-2.34,1.14,0.244,Mpcp1,1
0.297,0.703,0.345,flip,1
-3.4 (active),-3.66,-1.06,Su(var)3-7,1
0.681,0.636,0.671,CG32532,1
-6.56,0.619,0.576,CG32532,2
0.544,-0.771,0.824,CG32532,3
0.533,1.01,-4.19,CG7668,1
0.016,1.45,0.892,Pi3K92E,1
1.18,1.26,0.561,Pi3K92E,2
-3.52 (active),-1.04,-5.84,GstE7,1
0.542,0.203,0.583,ifc,1
-0.219,-0.596,0.377,gsb-n,1
0.747,0.347,-0.592,gsb-n,2
0.378,-1.21,0.241,CG13287,1
0.327,1.22,0.581,CG13287,2
